{"source": "PubChem BioAssay AID504761 (Drosophila RNAi Screening Center, 2011)", "screen": "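Fly genes whose silencing reduces dengue virus type 2 infection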 (primary screen)", "system": "D.Mel-2 cells from Drosophila", "knock-down reagent": "long dsRNA against Drosophila genes", "conditions": "infection with dengue virus type 2; dose and infection time not stated", "read-out": "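Per well on two replicate plates, imaging gave the percent of cells positive for viral envelope protein, ranked by infection, and a nuclear count of cells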", "direction": "infection score: higher = more virus-infected cells; cell count: higher = more cells in the well", "rule for the call": "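Low infection ranks in the two replicates (chance level up to 0.065) followed by a retest with a 1.5-fold or larger significant decrease, p below 0.05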", "calls": "active = confirmed: knock-down lowers infection; inactive = not picked or not confirmed", "note": "The deposit covers about 22,000 reagents; below is a random part of those with a known target gene and a result. Over the whole deposit, 116 (0.52%) are marked active. 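Calls depend on retest data that are not deposited; infection was ranked per plate without normalising between plates; the unit of the infection score is not given.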 Raw values are not corrected between plates. Further read-outs or replicates are left out here. Not given: the amount of reagent, the time to read-out."}
{"gene": "cni", "DRSC id": "DRSC03512", "infection score, replicate 1": 1.7, "cell count, replicate 1": 705, "call": "inactive"}
{"gene": "rad (retired record)", "DRSC id": "DRSC19687", "infection score, replicate 1": 11.8, "cell count, replicate 1": 6305, "call": "inactive"}
{"gene": "rad (retired record)", "DRSC id": "DRSC22865", "infection score, replicate 1": 1.55, "cell count, replicate 1": 6119, "call": "inactive"}
{"gene": "apolpp", "DRSC id": "DRSC17216", "infection score, replicate 1": 4.15, "cell count, replicate 1": 6648, "call": "inactive"}
{"gene": "beta'COP", "DRSC id": "DRSC03492", "infection score, replicate 1": 2.02, "cell count, replicate 1": 1338, "call": "inactive"}
{"gene": "beta'COP", "DRSC id": "DRSC26650", "infection score, replicate 1": 5.18, "cell count, replicate 1": 1024, "call": "inactive"}
{"gene": "ACXB", "DRSC id": "DRSC00845", "infection score, replicate 1": 37.5, "cell count, replicate 1": 5144, "call": "inactive"}
{"gene": "ACXB", "DRSC id": "DRSC26343", "infection score, replicate 1": 12.3, "cell count, replicate 1": 5673, "call": "inactive"}
{"gene": "Osi7", "DRSC id": "DRSC12176", "infection score, replicate 1": 2.32, "cell count, replicate 1": 6772, "call": "inactive"}
{"gene": "Osi7", "DRSC id": "DRSC27146", "infection score, replicate 1": 4.62, "cell count, replicate 1": 6885, "call": "inactive"}
{"gene": "betaTub97EF", "DRSC id": "DRSC15666", "infection score, replicate 1": 2.99, "cell count, replicate 1": 5827, "call": "inactive"}
{"gene": "betaTub97EF", "DRSC id": "DRSC15667", "infection score, replicate 1": 6.07, "cell count, replicate 1": 6033, "call": "inactive"}
{"gene": "betaTub97EF", "DRSC id": "DRSC15668", "infection score, replicate 1": 6.19, "cell count, replicate 1": 5716, "call": "inactive"}
{"gene": "fy", "DRSC id": "DRSC03533", "infection score, replicate 1": 5.41, "cell count, replicate 1": 6415, "call": "inactive"}
{"gene": "fy", "DRSC id": "DRSC25931", "infection score, replicate 1": 5.45, "cell count, replicate 1": 6398, "call": "inactive"}
